Anti-infective test results gathered from many reports (values: NIAID ChemDB through PubChem).

All rows: tests in culture; species: Mycobacterium tuberculosis

An empty or dashed field is not shown.

compound,changes,read by,endpoint,tested at,strain or isolate,result
CC(C)(CNC(=O)C12CC3CC(CC(C3)C1)C2)NC(=O)C12CC3CC(CC(C3)C1)C2,,resazurin,MIC bound,,H37Rv,>6.25 µg/mL
CCNCC1CCN(c2c(F)cc3c(=O)c(C(=O)O)cn(CC)c3c2F)C1,,,MIC,,10 strains,1 µg/mL
Cc1cc(O)c2c(c1)C(=O)C=CC2=O,,,MIC,,H37Rv,0.5 µg/mL
C[C@]1(COc2ccc3nc(N4CCC(=Cc5ccc(OC(F)(F)F)cc5)CC4)ccc3c2)Cn2cc([N+](=O)[O-])nc2O1,,,MIC,,H37Rv,0.012 µg/mL
O=C1C(=O)N(CCCCCCN2CCN(c3ccnc4cc(Cl)ccc34)CC2)c2ccc(Cl)cc21,,,MIC99,,MC2 6230,19.56 µM
CC(C)COc1ccc(NC(=S)Nc2ccc(-c3ccccn3)cc2)cc1,,,MIC,,H37RV (PAS-R),>50 µg/mL
Cc1cc(O)c2c(c1)C(=O)CCC2=O,,,MIC,,H37Rv,100 µg/mL
CC1COc2c(N3CCN(C)CC3)c(F)cc3c(=O)c(C(=O)O)cn1c23,,,MIC,,H37Rv,1 µg/mL
O=c1[nH]c2cc(Cl)c(Br)cc2o1,,BACTEC,MIC bound,,H37Rv,>12.5 µg/mL
C[C@]1(COc2ccc(N3CCN(C/C=C/c4cccc(C(F)(F)F)c4F)CC3)cc2)Cn2cc([N+](=O)[O-])nc2O1,,,MIC,,H37Rv,0.024 µg/mL
COc1c(N2C[C@@H]3CCCN[C@@H]3C2)c(F)cc2c(=O)c(C(=O)O)cn(C3CC3)c12,,,MIC,,H37Rv,0.177 µg/mL
O=C1C(=O)N(CCCCCN2CCN(c3ccnc4cc(Cl)ccc34)CC2)c2ccccc21,,,MIC99,,MC2 6230,43.29 µM
OCC1(OC2OC(CF)C(O)C(O)C2O)OC(CF)C(O)C1O,,BACTEC,inhibition,12.5 µg/mL,H37Rv,6%
Cc1nc2ccccc2nc1C(=O)CN(C)Cc1ccccc1,,resazurin,MIC,,H37Rv,50 µg/mL
CO[C@H]1/C=C/O[C@@]2(C)Oc3c(C)c(O)c4c(=O)c(c5oc6cc(N7CCN(CC(C)C)CC7)cc(=O)c6nc5c4c3=C2O)NC(=O)/C(C)=C\C=C\[C@H](C)[C@H](O)[C@@H](C)[C@@H](O)[C@@H](C)[C@H](OC(C)=O)[C@@H]1C,,,MIC,,TN1733,8 µg/mL
Cc1ccc2occ(/C=N/NC(=O)c3cc(O)c(O)c(O)c3)c(=O)c2c1,,,MIC,,H37Rv,>100 µg/mL
COc1cnc2ccc(=O)n(CCN3CCC(NCc4cc(Cl)c(Cl)cn4)CC3)c2c1,,resazurin,MIC,,Canettii,0.04 µg/mL
CC(=O)N/C(=C/c1ccc(Cc2nc3c([nH]2)C(=O)c2ccccc2C3=O)cc1)c1nc2c([nH]1)C(=O)c1ccccc1C2=O,,BACTEC,MIC bound,,H37Rv,>12.5 µg/mL
Cc1cc(O)c2c(c1)C(=O)C=C(C1=CC(=O)c3cc(C)cc(O)c3C1=O)C2=O,,,MIC,,H37Rv,100 µg/mL
C=CCc1ccc(O)c(O)c1,,agar / visual reading,MIC,,H37Rv,184 µM
Cc1nc2ccccc2nc1C(=O)CSCCO,,resazurin,MIC,,H37Rv,50 µg/mL
O=C(N=Nc1c(Cl)c(O)c2ccccc2c1O)c1ccccc1O,,BACTEC,MIC bound,,H37Rv,≤12.5 µg/mL
CN1CCN(c2c(F)cc3c(=O)c(C(=O)O)cn(CCF)c3c2F)CC1,,,MIC,,10 strains,2 µg/mL
CNC(=[SH+])[N-]/N=C(\C)c1ccccn1.[Cl][Cu],,BACTEC,inhibition,12.5 µg/mL,H37Rv,98%
N[C@@H](Cc1ccccc1)[C@H](O)C[C@H](Cc1ccccc1)N=Cc1ncc[nH]1,,resazurin,MIC,,ATTC 27294,>276.1 µM
Cc1ccc2c(c1)C(=O)C(=O)N2CCCCCCCN1CCN(c2ccnc3cc(Cl)ccc23)CC1,,,MIC99,,MC2 6230,>193 µM
FC(F)(F)c1ccc2c(c1)N(CCCN1CCN(C3CC3)CC1)c1ccccc1S2,,BACTEC,MIC bound,,H37Rv,≤12.5 µg/mL
CC1COc2c(N3CCN(C)CC3)c(F)cc3c(=O)c(C(=O)O)cn1c23,,,MIC,,10 strains,1 µg/mL
CN1C(=O)/C(=N\n2c(-c3ccccc3)nc3ccccc3c2=O)c2ccccc21,,BACTEC,inhibition,12.8 µg/mL,H37Rv,-15%
NCCC[C@H](N)CC(=O)N[C@H]1CNC(=O)[C@H]([C@H]2C[C@H](O)NC(N)=N2)NC(=O)/C(=C/NC(N)=O)NC(=O)[C@H](CO)NC(=O)[C@H](CO)NC1=O,,,MIC,,H37Rv,5 µg/mL
O=c1c(/C=N/c2nc3ccc(Cl)cc3s2)coc2ccc(Cl)cc12,,,MIC,,H37Rv,10 µg/mL
Cc1nc2ccccc2nc1C(=O)CSCCN,,resazurin,MIC,,H37Rv,50 µg/mL
CCCCCS(=O)(=O)Nc1ccc2[nH]cc(C)c2c1,,resazurin,MIC90,,H37Rv,1.56 µM
CCOC(=O)c1cc(C(=O)c2ccccc2[N+](=O)[O-])n2c1c(Br)cc1ccccc12,MDR,resazurin,MIC,,,8 µg/mL
N#Cc1c(NC(=O)c2ccccc2)oc(-c2ccccc2)c1-c1ccccc1,,resazurin,inhibition,50 µg/mL,H37Rv,6%
CC[N+]12CC=C3COC(=O)C(C)(O)C(C)(O)C(C)C(=O)OC(CC1)C32.[Br-],,BACTEC,inhibition,12.5 µg/mL,H37Rv,18%
CC1=C(C(=O)O)N2C(=O)[C@@H](NC(=O)[C@H](N)c3ccccc3)[C@H]2SC1,,,MIC99,,MC2 6230,68.41 µM
CCCCS(=O)(=O)Nc1ccc2[nH]c(C(=O)NCc3cccc(Cl)c3)c(C)c2c1,,resazurin,MIC90,,H37Rv,>100 µM
NNC(=O)c1ccncc1,XDR,resazurin / fluorescence,MIC,,MYC 431,>100 µg/mL
CC(=O)NC1C(=O)N(c2ccccc2)N=C1C,,BACTEC,MIC bound,,H37Rv,>12.8 µg/mL
Brc1cncnc1-c1ccco1,Rifampicin- and isoniazid-resistant,broth dilution,MIC,,MDR,1.5 µg/mL
OC(c1cc2c(Cl)cc(Cl)cc2c2cc(C(F)(F)F)ccc12)C1CCCCN1,,resazurin,MIC,,H37Rv,1.56 µg/mL
Cc1nc2ccccc2nc1C(=O)CN(C)C1CCCCC1,,resazurin,MIC,,H37Rv,50 µg/mL
C=C(CC1CCN(c2ccc(OC[C@@]3(C)Cn4cc([N+](=O)[O-])nc4O3)cc2)CC1)c1ccc(C(F)(F)F)cc1,,,MIC,,H37Rv,0.012 µg/mL
COc1ccc(-c2nc(Nc3ccccc3)sc2Cc2sc(Nc3ccccc3)nc2-c2ccc(OC)cc2)cc1,,resazurin,inhibition,6.25 µg/mL,H37Rv,19%
CCNC1Oc2cc(Cl)ccc2C(=O)/C1=C/Nc1ccc2[nH]c(=S)sc2c1,,,MIC,,H37Rv,2.5 µg/mL
CO[C@H]1/C=C/O[C@@]2(C)Oc3c(C)c(O)c4c(O)c(c5c(c4c3C2=O)NC2(CCN(CC(C)C)CC2)N=5)=NC(=O)/C(C)=C\C=C\[C@H](C)[C@H](O)[C@@H](C)[C@@H](O)[C@@H](C)[C@H](OC(C)=O)[C@@H]1C,,,MIC,,Strain 1 (STR-resistant),0.006 µg/mL
N#Cc1ccccc1C(Cl)(Cl)c1cnccn1,,BACTEC,MIC bound,,H37Rv,>12.5 µg/mL
COc1c(C)c(O)cc2c1Oc1ccc(CC=C(C)C)c(O)c1C=C2,,,MIC,,H37Ra,12.5 µg/mL
C[C@]1(COc2ccc(N3CCC(OC(=O)Nc4ccc(Cl)cc4)CC3)cc2)Cn2cc([N+](=O)[O-])nc2O1,,,MIC,,H37Rv,0.003 µg/mL
CN(C)N1C(=O)C(C(=O)Nc2cccc3ccccc23)SC1=S,,resazurin,inhibition,6.25 µg/mL,H37Rv,5%
COc1ccc(C2N=C(N)Nc3c2c(C)nn3-c2ccc3c(c2)Nc2ccccc2S3)cc1,,resazurin,inhibition,42 µg/mL,H37Rv,78%
Cc1onc(-c2c(Cl)cccc2Cl)c1C(=O)Nc1ccccc1CC1c2ccccc2CCN1C,,resazurin,inhibition,6.25 µg/mL,H37Rv,57%
CC(C)(C)OC(=O)N[C@@H](Cc1ccccc1)[C@H](O)C[C@H](Cc1ccccc1)N=Cc1ccc(-c2ccccc2)nc1,,resazurin,MIC,,ATTC 27294,91 µM
CCCCS(=O)(=O)Nc1ccc2[nH]c(CO)c(C)c2c1,,resazurin,MIC90,,H37Rv,>100 µM
C[C@]1(COc2ccc(N3CCC(COc4ccc(OC(F)(F)F)cc4)CC3)cc2)Cn2cc([N+](=O)[O-])nc2O1,,,MIC,,H37Rv,0.0015 µg/mL
C=CCc1ccc(OC(C)=O)c(OC(C)=O)c1,,agar / visual reading,MIC,,H37Rv,129.5 µM
CC1=CC(=N/Cl)/C=CC/1=N\Cl,,BACTEC,MIC bound,,H37Rv,>12.5 µg/mL
CC1COc2c(N3CCN(C)CC3)c(F)cc3c(=O)c(C(=O)O)cn1c23,,resazurin,MIC,,BCG,0.16 µg/mL
N#CCCN1CCN(CCC#N)C1=S,,BACTEC,MIC bound,,H37Rv,>12.5 µg/mL
O=C1C(=O)N(CC#CCN2CCN(c3ccnc4cc(Cl)ccc34)CC2)c2ccccc21,,,MIC99,,MC2 6230,>225 µM
Cc1ccc2occ(/C=N/c3nc4c(Cl)cccc4s3)c(=O)c2c1,,,MIC,,H37Rv,25 µg/mL
O=C1C(=O)N(CCCCCCCN2CCN(c3ccnc4cc(Cl)ccc34)CC2)c2ccccc21,,,MIC99,,MC2 6230,55.8 µM
CC(C)(C)OC(=O)N[C@@H](Cc1ccccc1)[C@H](O)C[C@@H](N)Cc1ccccc1,,resazurin,MIC,,ATTC 27294,130.1 µM
Cc1cc(=O)cc2sc3cc(Cl)ccc3nc1-2,,resazurin,MIC,,H37Rv,3.13 µg/mL
CCc1nc2ccccc2n1CCCCNc1ccc(OC)cc1,,turbidity / fluorescence,MIC99,,H37Rv,1.4 µM
CN(CCOc1ccc(OC(F)(F)F)cc1)C1CCN(c2ccc(OC[C@@]3(C)Cn4cc([N+](=O)[O-])nc4O3)cc2)CC1,,,MIC,,H37Rv,0.024 µg/mL
CCOC1Oc2ccc(Cl)cc2C(=O)/C1=C/Nc1nc2ccccc2s1,,,MIC,,H37Rv,50 µg/mL
Cc1ccc2[nH]c3c(C)c4cc[n+](C)cc4c(C)c3c2c1,XDR,resazurin / fluorescence,MIC,,MYC 431,1.5 µM
Cc1c(C(=O)NCc2ccccc2)[nH]c2ccc(NS(=O)(=O)CCCCF)cc12,,resazurin,MIC90,,H37Rv,3.1 µM
O=C1NOCC1NC(=O)C(F)(F)F,,,MIC,,H37Rv,50 µg/mL
Cc1cc(O)c2c(c1)C(=O)C(c1c(C)cc3c(c1O)C(=O)C=CC3=O)=CC2=O,,,MIC,,CCK028469V isoniazid- rifampin-resistant,100 µg/mL
COc1cc2c3c(c1OC)-c1cc4c(cc1CC3N(C=O)CC2)OCO4,,resazurin,MIC,,H37Rv,>50 µg/mL
O=C1C(=O)N(CCCCCCN2CCN(c3ccnc4cc(Cl)ccc34)CC2)c2ccccc21,,,MIC99,,MC2 6230,52.52 µM
N[C@@H](Cc1ccccc1)[C@H](O)C[C@H](Cc1ccccc1)N=Cc1ccc([N+](=O)[O-])o1,,resazurin,MIC,,ATTC 27294,>245.5 µM
C[C@]1(COc2ccc(N3CCC(Nc4cccc(Cl)c4)CC3)cc2)Cn2cc([N+](=O)[O-])nc2O1,,,MIC,,H37Rv,0.024 µg/mL
OCC1OC(O)C(N=Cc2ccccc2O)C(O)C1O,,BACTEC,inhibition,12.5 µg/mL,H37Rv,11%
C[C@]1(COc2ccc(N3CCC(COCc4cccc(C(F)(F)F)c4)CC3)cc2)Cn2cc([N+](=O)[O-])nc2O1,,,MIC,,H37Rv,0.024 µg/mL
O=C(NC1CONC1=O)c1cccc(C(F)(F)F)c1,,,MIC,,13PI,50 µg/mL
C=C1C(=O)OC2CC(C)C3(O)CCC(=O)C3(C)CC12,,BACTEC,inhibition,12.5 µg/mL,H37Rv,10%
COc1cccc2c1cc1c3c(cc4c(c32)OCO4)C(=O)N1,,resazurin,MIC,,MMDO,25 µg/mL

10 of the rows above, restated:

CC[N+]12CC=C3COC(=O)C(C)(O)C(C)(O)C(C)C(=O)OC(CC1)C32.[Br-] ; read by: BACTEC ; endpoint: inhibition ; tested at: 12.5 µg/mL ; strain or isolate: H37Rv ; result: 18%
COc1cc2c3c(c1OC)-c1cc4c(cc1CC3N(C=O)CC2)OCO4 ; read by: resazurin ; endpoint: MIC ; strain or isolate: H37Rv ; result: >50 µg/mL
NCCC[C@H](N)CC(=O)N[C@H]1CNC(=O)[C@H]([C@H]2C[C@H](O)NC(N)=N2)NC(=O)/C(=C/NC(N)=O)NC(=O)[C@H](CO)NC(=O)[C@H](CO)NC1=O ; endpoint: MIC ; strain or isolate: H37Rv ; result: 5 µg/mL
C=C(CC1CCN(c2ccc(OC[C@@]3(C)Cn4cc([N+](=O)[O-])nc4O3)cc2)CC1)c1ccc(C(F)(F)F)cc1 ; endpoint: MIC ; strain or isolate: H37Rv ; result: 0.012 µg/mL
OCC1(OC2OC(CF)C(O)C(O)C2O)OC(CF)C(O)C1O ; read by: BACTEC ; endpoint: inhibition ; tested at: 12.5 µg/mL ; strain or isolate: H37Rv ; result: 6%
COc1ccc(C2N=C(N)Nc3c2c(C)nn3-c2ccc3c(c2)Nc2ccccc2S3)cc1 ; read by: resazurin ; endpoint: inhibition ; tested at: 42 µg/mL ; strain or isolate: H37Rv ; result: 78%
COc1cccc2c1cc1c3c(cc4c(c32)OCO4)C(=O)N1 ; read by: resazurin ; endpoint: MIC ; strain or isolate: MMDO ; result: 25 µg/mL
CN(CCOc1ccc(OC(F)(F)F)cc1)C1CCN(c2ccc(OC[C@@]3(C)Cn4cc([N+](=O)[O-])nc4O3)cc2)CC1 ; endpoint: MIC ; strain or isolate: H37Rv ; result: 0.024 µg/mL
C[C@]1(COc2ccc3nc(N4CCC(=Cc5ccc(OC(F)(F)F)cc5)CC4)ccc3c2)Cn2cc([N+](=O)[O-])nc2O1 ; endpoint: MIC ; strain or isolate: H37Rv ; result: 0.012 µg/mL
CC1COc2c(N3CCN(C)CC3)c(F)cc3c(=O)c(C(=O)O)cn1c23 ; endpoint: MIC ; strain or isolate: H37Rv ; result: 1 µg/mL

Inhibition is in % at the dose shown (toxicity tests: loss of growth or viability). MIC50, MIC90 and the like: level of inhibition, or share of isolates inhibited. Conditions beyond the fields shown may differ between rows. MIC bound: limit read from a one-dose screen.